Pooled drug test results. Numbers come from NIAID ChemDB, via PubChem.

Shared fields: growth or infection tests; species: Mycobacterium smegmatis; measure: MIC

An empty or dashed field is not shown.

structure,strain or isolate,mutations,read by,value
O=C(/C=C/c1ccccc1)Nc1ccccc1CN1CCOCC1,103599,,,>16 µg/mL
Cc1noc(C)c1-n1sc(=O)n(CC2CC2)c1=O,mc2155,,broth dilution,50 µg/mL
COc1ccc2cc(C(=O)CN3CCN(c4c(F)cc5c(=O)c(C(=O)O)cn(C6CC6)c5c4OC)CC3)c(=O)oc2c1,CMCC 93202,,,6.25 µg/mL
CNC(C)C1CC[C@@H](N)[C@@H](O[C@H]2[C@H](O)[C@@H](OC3OC[C@](C)(O)[C@H](NC)[C@H]3O)[C@H](N)C[C@@H]2N)O1,,,resazurin,4 µM
CCCCCOc1cc(-c2cccc(F)c2)nc2ccccc12,ATCC 607,,,125 µg/mL
Fc1ccc(C(Cn2ccnc2)NCc2ccc(-c3ccccc3)cc2)cc1,CIP 103599,,,16 µg/mL
CCO/N=C(/CN1CCN(c2cc3c(cc2F)c(=O)c(C(=O)O)cn3C2CC2)CC1)c1cc2ccccc2oc1=O,CMCC 93202,,,>12.5 µg/mL
CSCC[C@H](NS(=O)(=O)c1ccc(C)cc1)C(=O)N/N=C/c1ccc(-c2ccc(Cl)cc2)o1,ATCC 607,,broth dilution / visual reading,>250 µg/mL
CCO/N=C(/CN1CCN(c2c(F)cc3c(=O)c(C(=O)O)cn(C4CC4)c3c2OC)CC1C)c1cc2ccc(OC)cc2oc1=O,CMCC 93202,,,6.25 µg/mL
CCCCCCCC/C=N/NC(=O)c1cnc2cc(F)ccc2c1NC(CSc1ccccc1)CC(=O)N(C)C,ATCC 19420,,resazurin,10 µg/mL
COc1c(N2CCN(C)C(c3ccccc3)C2)c(F)cc2c(=O)c(C(=O)O)cn(C3CC3)c12,ATCC 14468,,agar,27.69 µM
CC[C@H](C)[C@@H](NC(=O)[C@@H](CCC(=O)O)NC(=O)[C@H](Cc1cnc[nH]1)NC(=O)[C@H](CC(C)C)NC(=O)[C@H](N)Cc1ccccc1)C(=O)N[C@H]1CCCCNC1=O,,,resazurin,0.78 µg/mL
O=c1sn(-c2ccc([N+](=O)[O-])cc2Cl)c(=O)n1C1Cc2ccccc2C1,mc2155,,broth dilution,50 µg/mL
CO[C@H]1/C=C/O[C@@]2(C)Oc3c(C)c(O)c4c(O)c(c(/C=N/N=c5\sc6ccccc6n5C)c(O)c4c3C2=O)NC(=O)/C(C)=C\C=C\[C@H](C)[C@H](O)[C@@H](C)[C@@H](O)[C@@H](C)[C@H](OC(C)=O)[C@@H]1C,ATCC 607,,,1.56 µg/mL
CCCCCCCCCCCC#CC(=O)O,mc2155,,,268 µg/mL
CSCC[C@H](NS(=O)(=O)c1ccc(C)cc1)C(=O)N/N=C/c1ccc(Cl)cc1,ATCC 607,,broth dilution / visual reading,>250 µg/mL
Cc1c(CN2CCN(C)CC2)cc(-c2ccc(Cl)cc2)n1-c1ccc(Cl)cc1,CIP 103599,,,25 µg/mL
CC(=O)Oc1ccccc1C(=O)Nc1cnccn1,,,resazurin,≥500 µg/mL
Clc1ccc(C(Cn2ccnc2)NCc2cccc3ccccc23)cc1,CIP 103599,,,>16 µg/mL
CC1COc2c(N3CCN(C)CC3)c(F)cc3c(=O)c(C(=O)O)cn1c23,mc2155,,,0.5 µg/mL
c1ccc(C(Cn2ccnc2)NCc2cccc3ccccc23)cc1,CIP 103599,,,>16 µg/mL
COc1ccc(/C=N/NC(=O)c2cnc3cc(F)ccc3c2NC(CSc2ccccc2)CC(=O)N(C)C)cc1,ATCC 19420,,resazurin,>100 µg/mL
Clc1ccc(C(Cn2ccnc2)NCc2ccc(-c3ccccc3)cc2)cc1,CIP 103599,,,16 µg/mL
O=c1sn(-c2ccc(F)c(Cl)c2)c(=O)n1C1Cc2ccccc2C1,mc2155,,broth dilution,0.39 µg/mL
CCO/N=C(/CN1CCN(c2c(F)cc3c(=O)c(C(=O)O)cn(C4CC4)c3c2OC)CC1)c1cc2ccc(OC)cc2oc1=O,CMCC 93202,,,6.25 µg/mL
CO[C@@H]1O[C@H]([C@H](O)CO)C(O)C1O,mc2155,,absorbance,>2.6 µM
CCCCCCCCCCCCCC#CCCC(=O)O,mc2155,,,>360 µg/mL
COc1c(N2CCN(C(=O)c3ccco3)CC2)c(F)c([N+](=O)[O-])c2c(=O)c(C(=O)O)cn(C3CC3)c12,ATCC 14468,,agar,12.49 µM
COc1ccc(-c2nn(-c3ccc(Cl)cc3)cc2C2CC(c3ccc(C)o3)=NN2)cc1,,,resazurin,62.5 µg/mL
Cc1ccc(-n2sc(=O)n(Cc3ccc(F)cc3)c2=O)cc1,mc2155,,broth dilution,25 µg/mL
CSCC[C@H](NS(=O)(=O)c1ccc(C)cc1)C(=O)N/N=C/c1ccc([N+](=O)[O-])cc1,ATCC 607,,broth dilution / visual reading,>250 µg/mL
COc1ccc(-c2nn(-c3ccc(Cl)cc3)cc2C2CC(c3ccc4c(c3)CCO4)=NN2)cc1,,,resazurin,500 µg/mL
CN1CCN(Cc2cccc(NC(=O)/C=C/c3ccccc3)c2)CC1,103599,,,>16 µg/mL
COc1ccc(/C=N/NC(=O)c2cnc3cccc(C(F)(F)F)c3c2NC(CSc2ccccc2)CC(=O)N(C)C)c(F)c1,ATCC 19420,,resazurin,>100 µg/mL
COc1ccc(CC2C3=C(CCCC3)CCN2c2c(F)cc3c(=O)c(C(=O)O)cn(C4CC4)c3c2OC)cc1,ATCC 14468,,agar,2.93 µM
CSCC[C@H](NS(=O)(=O)c1ccc(C)cc1)C(=O)N/N=C/c1ccc([N+](=O)[O-])o1,ATCC 607,,broth dilution / visual reading,63.8 µg/mL
C=C1C(=O)[C@@]23C(=O)O[C@H]4CCC(C)(C)[C@H]5C(=O)OC[C@@]45[C@@H]2CC[C@@H]1[C@H]3OC(=O)c1cnccn1,ATCC 19420,,resazurin,>64 µg/mL
NC1CCN(CCCCn2ccc(Nc3ccc(COCCNCC4CC4)cn3)nc2=O)CC1,,,turbidity,8–32 µg/mL
CSCCC/C=N/NC(=O)c1cnc2cc(F)ccc2c1NC(CSc1ccccc1)CC(=O)N(C)C,ATCC 19420,,resazurin,>100 µg/mL
CCCCCCCCCCCCN1c2ccccc2Sc2ccccc21,mc2155,,broth dilution,>64 µg/mL
O=C1CC(c2ccc(F)cc2)Nc2ccccc21,ATCC 607,,,125 µg/mL
NNC(=O)c1ccncc1,mc2651,,,50 µg/mL
CCCCCCCCOCC(C)(COc1ccccc1)[C@@H]1O[C@H]([C@H](O)CO)C(O)C1O,mc2155,,absorbance,0.09 µM
CCCCCCCOc1cc(-c2ccc(F)cc2)nc2ccccc12,ATCC 607,,,250 µg/mL
Cc1c(C)c(C)[c-](C)c1C.N[C@H](C(=O)[O-])c1ccccc1.[Cl][Rh+2],VT 307,,,7 µg/mL
CCCCCCCCC(O)[C@@H]1O[C@H](C(C)O)C(O)C1O,mc2155,,absorbance,2 µM
COc1ccccc1/C=C/C1=NN(C(=N)N)C(c2ccccc2OC)C1,,,resazurin,1.78 µM
Clc1ccc(C(Cn2ccnc2)NC/C=C/c2ccccc2)cc1,CIP 103599,,,>16 µg/mL
CCCCCCCCCCCCCCCC#CC(=O)O,mc2155,,,4 µg/mL
CSCC[C@H](NS(=O)(=O)c1ccc(C)cc1)C(=O)N/N=C(\C)C12CC3CC(CC(C3)C1)C2,ATCC 607,,broth dilution / visual reading,132.5 µg/mL
C[C@@H]1CN(c2c(F)c(N)c3c(=O)c(C(=O)O)cn(C4CC4)c3c2F)C[C@H](C)N1,ATCC 607,,,0.1 µg/mL
Clc1ccc(C(Cn2ccnc2)NC/C=C/c2ccccc2)c(Cl)c1,CIP 103599,,,>16 µg/mL
C=C1C(=O)[C@@]23C(=O)O[C@H]4CCC(C)(C)[C@H]5C(=O)OC[C@@]45[C@@H]2CC[C@@H]1[C@H]3OC(=O)C1CCCC1,ATCC 19420,,resazurin,4 µg/mL
Cc1ccc(C2=NNC(c3cn(-c4ccc(Cl)cc4)nc3-c3ccccc3)C2)o1,,,resazurin,250 µg/mL
Cc1cccc(Cl)c1-n1sc(=O)n(CC2CC2)c1=O,mc2155,,broth dilution,100 µg/mL
CCCCCCCCCCCCOc1cc(-c2cccc(F)c2)nc2ccccc12,ATCC 607,,,125 µg/mL
Clc1ccc(-n2cc(C3CC(c4ccc5c(c4)CCO5)=NN3)c(-c3cccs3)n2)cc1,,,resazurin,62.5 µg/mL
COc1c(N2CCN(CC(=O)c3cc4ccc(O)cc4oc3=O)CC2)c(F)cc2c(=O)c(C(=O)O)cn(C3CC3)c12,CMCC 93202,,,6.25 µg/mL
C=C1C2CCC(C(=O)O)[C@@]23CC[C@H](C3)C1(C)C,CSC101,Ciprofloxacin-resistant,agar diffusion,6.25 µg/mL
NCCCNCc1ccc(Nc2nc(=O)n(CCCCN3CCC(N)CC3)cc2F)nc1,,,turbidity,<8 µg/mL
O=C(NCCNC(=O)c1ccc2c(c1)B(O)OC2)c1ccc2c(c1)B(O)OC2,mc2155,,visual reading / absorbance,780 µM
COc1cc(C(=O)NS(=O)(=O)c2ccccc2C)ccc1Cc1cn(C)c2ccc(NC(=O)OC3CCCC3)cc12,,,MTT,6 µM
C=C1C(=O)[C@@]23C(CC[C@@H]1[C@H]2OC(=O)c1ccc(F)cc1)[C@@]12COC3(O)[C@@H](O)[C@@H]1C(C)(C)CC[C@@H]2OC(C)=O,ATCC 19420,,resazurin,4 µg/mL
O=C(Nc1ccccc1Cn1ccnc1)c1ccc(Cl)cc1,103599,,,>16 µg/mL
N=C(N)N1N=C(/C=C/c2ccccc2)CC1c1ccccc1,,,resazurin,≤1.07 µM
C[C@](N)(CO)C(=O)Nc1ccc(Nc2ccn(CCCCN3CCC(N)CC3)c(=O)n2)nc1,,,turbidity,8–32 µg/mL
O=C1CC(c2ccccc2F)Nc2ccccc21,ATCC 607,,,125 µg/mL
COc1ccc2cc(C(=O)CN3CCN(c4c(F)cc5c(=O)c(C(=O)O)cn(C6CC6)c5c4OC)CC3C)c(=O)oc2c1,CMCC 93202,,,>12.5 µg/mL
O=c1sn(-c2ccccc2C(F)(F)F)c(=O)n1CC1CC1,mc2155,,broth dilution,50 µg/mL
CCCCCCCCCC#CC(=O)O,mc2155,,,>300 µg/mL
Clc1ccc(-n2cc(C3CC(c4ccc(-c5ccccc5)cc4)=NN3)c(-c3ccccc3)n2)cc1,,,resazurin,125 µg/mL
CSCC[C@H](NS(=O)(=O)c1ccc(C)cc1)C(=O)N/N=C(\C)c1ccc(Cl)s1,ATCC 607,,broth dilution / visual reading,>250 µg/mL
C=C1C(=O)[C@@]23C(=O)O[C@H]4CCC(C)(C)[C@H]5[C@H](O)OC[C@@]45[C@@H]2CC[C@@H]1[C@H]3OC(=O)c1cc2ccccc2[nH]1,ATCC 19420,,resazurin,8 µg/mL
CSCC[C@H](NS(=O)(=O)c1ccc(C)cc1)C(=O)N/N=C/c1ccc(Cl)s1,ATCC 607,,broth dilution / visual reading,>250 µg/mL
CCCCCCCCOCC(C)(COCCCCCCCC)[C@@H]1O[C@H]([C@H](O)CO)C(O)C1O,mc2155,,absorbance,0.5 µM
CCCCCCCCCCCCCC#CC(=O)O,mc2155,,,10 µg/mL
CC1COc2c(N3CCN(C(c4ccccc4)c4ccc(Cl)cc4)CC3)c(F)c([N+](=O)[O-])c3c(=O)c(C(=O)O)cn1c23,ATCC 14468,,agar,0.66 µM

Repeating the first 10 entries:

structure | strain or isolate | mutations | read by | value
O=C(/C=C/c1ccccc1)Nc1ccccc1CN1CCOCC1 | 103599 |  |  | >16 µg/mL
Cc1noc(C)c1-n1sc(=O)n(CC2CC2)c1=O | mc2155 |  | broth dilution | 50 µg/mL
COc1ccc2cc(C(=O)CN3CCN(c4c(F)cc5c(=O)c(C(=O)O)cn(C6CC6)c5c4OC)CC3)c(=O)oc2c1 | CMCC 93202 |  |  | 6.25 µg/mL
CNC(C)C1CC[C@@H](N)[C@@H](O[C@H]2[C@H](O)[C@@H](OC3OC[C@](C)(O)[C@H](NC)[C@H]3O)[C@H](N)C[C@@H]2N)O1 |  |  | resazurin | 4 µM
CCCCCOc1cc(-c2cccc(F)c2)nc2ccccc12 | ATCC 607 |  |  | 125 µg/mL
Fc1ccc(C(Cn2ccnc2)NCc2ccc(-c3ccccc3)cc2)cc1 | CIP 103599 |  |  | 16 µg/mL
CCO/N=C(/CN1CCN(c2cc3c(cc2F)c(=O)c(C(=O)O)cn3C2CC2)CC1)c1cc2ccccc2oc1=O | CMCC 93202 |  |  | >12.5 µg/mL
CSCC[C@H](NS(=O)(=O)c1ccc(C)cc1)C(=O)N/N=C/c1ccc(-c2ccc(Cl)cc2)o1 | ATCC 607 |  | broth dilution / visual reading | >250 µg/mL
CCO/N=C(/CN1CCN(c2c(F)cc3c(=O)c(C(=O)O)cn(C4CC4)c3c2OC)CC1C)c1cc2ccc(OC)cc2oc1=O | CMCC 93202 |  |  | 6.25 µg/mL
CCCCCCCC/C=N/NC(=O)c1cnc2cc(F)ccc2c1NC(CSc1ccccc1)CC(=O)N(C)C | ATCC 19420 |  | resazurin | 10 µg/mL

a–b is a range or a potency band. Neighbouring rows are from separate reports.